Pooled drug test results. Numbers come from NIAID ChemDB, via PubChem.

Shared fields: host cell toxicity; cell line: HepG2.117; endpoint: CC50

CCn: concentration that lowers growth or viability of the cells by n%.

{"structure": "C[C@@H]1Cc2nn3c(c2CN1C(=O)c1ccc(Cl)c(C#N)c1)C(=O)N(Cc1ccc2c(c1)OC(F)(F)O2)CC3", "read by": "luminescence", "result": "11.3 µM"}
{"structure": "C=C[C@H](C)Nc1nc2c(c(=O)n1-c1ccc(C(=O)NC)cc1)C[C@@H](C)N(C(=O)c1ccc(Br)c(C(F)(F)F)c1)C2", "read by": "luminescence", "result": "46.8 µM"}
{"structure": "Cc1cc(C)n(-c2nc3c(c(=O)n2-c2cc(F)c4ncn(C)c4c2)C[C@@H](C)N(C(=O)c2ccc(Br)c(C(F)(F)F)c2)C3)n1", "read by": "luminescence", "result": ">0.5 µM"}
{"structure": "C=C[C@H](C)Nc1nc2c(c(=O)n1-c1ccc(C(=O)N(C)C(=O)O[C@@H](C)OC(=O)[C@@H](N)C(C)C)cc1)C[C@@H](C)N(C(=O)c1ccc(Br)c(C(F)(F)F)c1)C2", "read by": "luminescence", "result": ">50 µM"}
{"structure": "Cc1c(C(=O)N2Cc3c(nn4c3C(=O)N([C@@H](C)c3ccc(OC(F)F)cc3)CC4)C[C@H]2C)ccc(Cl)c1C#N", "read by": "luminescence", "result": ">50 µM"}
{"structure": "C=C[C@H](C)Nc1nc2c(c(=O)n1-c1ccc(C(=O)N(C)C(=O)O[C@H](OC(=O)[C@@H](N)C(C)C)C(C)C)cc1)C[C@@H](C)N(C(=O)c1ccc(Br)c(C(F)(F)F)c1)C2", "read by": "luminescence", "result": ">50 µM"}
{"structure": "Cc1cc(C)n(-c2nc3c(c(=O)n2-c2ccc4c(cnn4C)c2)C[C@@H](C)N(C(=O)c2ccc(Br)c(C(F)(F)F)c2)C3)n1", "read by": "luminescence", "result": ">0.5 µM"}
{"structure": "O=C(c1ccc(Cl)c(Cl)c1)N1CCc2nn3c(c2C1)-c1nccn1CCC3", "read by": "luminescence", "result": ">50 µM"}
{"structure": "Cc1cc(C)n(-c2nc3c(c(=O)n2-c2ccc(NC(C)C)nc2)C[C@@H](C)N(C(=O)c2ccc(Br)c(C(F)(F)F)c2)C3)n1", "read by": "luminescence", "result": ">0.5 µM"}
{"structure": "Cc1c(C(=O)N2Cc3c(nn4c3C(=O)N([C@H](C)c3ccc(OC(F)F)cc3)CC4)C[C@H]2C)ccc(Cl)c1C#N", "read by": "luminescence", "result": ">50 µM"}
{"structure": "C=C[C@H](C)Nc1nc2c(c(=O)n1-c1ccc(C(=O)N(C)C(=O)OCOC(=O)/C=C/C(=O)O)cc1)C[C@@H](C)N(C(=O)c1ccc(Br)c(C(F)(F)F)c1)C2", "result": ">50 µM"}
{"structure": "Cc1cc(C)n(-c2nc3c(c(=O)n2-c2ccc4c(c2)ncn4C)C[C@@H](C)N(C(=O)c2ccc(Br)c(C(F)(F)F)c2)C3)n1", "read by": "luminescence", "result": ">0.5 µM"}
{"structure": "C[C@@H]1Cc2nn3c(c2CN1C(=O)c1ccc(Cl)c(C#N)c1)C(=O)N([C@@H](C)c1ccnc(C(F)(F)F)c1)CC3", "read by": "luminescence", "result": ">50 µM"}
{"structure": "Cc1cc(C)n(-c2nc3c(c(=O)n2-c2ccc(N4CCOCC4)nc2)C[C@@H](C)N(C(=O)c2ccc(Br)c(C(F)(F)F)c2)C3)n1", "read by": "luminescence", "result": ">0.5 µM"}
{"structure": "C[C@@H]1Cc2nn3c(c2CN1C(=O)c1ccc(Cl)c(C#N)c1)C(=O)N([C@H](C)c1ccc2c(c1)OC(F)(F)O2)CC3", "read by": "luminescence", "result": ">50 µM"}

The first 2 rows once more:

structure,read by,result
C[C@@H]1Cc2nn3c(c2CN1C(=O)c1ccc(Cl)c(C#N)c1)C(=O)N(Cc1ccc2c(c1)OC(F)(F)O2)CC3,luminescence,11.3 µM
C=C[C@H](C)Nc1nc2c(c(=O)n1-c1ccc(C(=O)NC)cc1)C[C@@H](C)N(C(=O)c1ccc(Br)c(C(F)(F)F)c1)C2,luminescence,46.8 µM

Lines come from different laboratories, so protocols vary.